Experimental data: PMC10111423, “Antimalarial Imidazopyridines Incorporating an Intramolecular Hydrogen Bonding Motif: Medicinal Chemistry and Mechanistic Studies” (ACS Infectious Diseases, 2023)

Tested on: P. falciparum-infected erythrocyte
Test: Live-cell confocal microscopy colocalization with organelle trackers
Type: cell-based, Plasmodium falciparum

For O=[N+]([O-])c1ccc(NCCN(CCNc2cc3[nH]c(-c4cccc(C(F)(F)F)c4)nc3cn2)Cc2ccc(Cl)cc2O)c2nonc12 [Compound 14-NBD, 5-Chloro-2-(((2-((7-nitrobenzo[c][1,2,5]oxadiazol-4-yl)amino)ethyl)(2-((2-(3-(trifluoromethyl)phenyl)-1H-imidazo[4,5-c]pyridin-6-yl)amino)ethyl)amino)methyl)phenol], the “Colocalization with LysoTracker Red (acidic organelles, digestive vacuole)” value was “partial accumulation”, the “Colocalization with MitoTracker Deep Red (mitochondrion)” value was “interacted significantly with the parasite’s mitochondrion” and the “Colocalization with Nile Red (neutral lipids)” value was “colocalized with Nile Red”. For the same molecule, the “Colocalization with nuclear marker DRAQ5” value was “no colocalization was observed”.
